PubChem BioAssay AID1259414 | Drosophila RNAi Screening Center | 2018
Screen: 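Genome-wide screen for host control of endosymbiont load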 (primary screen). Cells: Drosophila JW18 cells infected with Wolbachia. Knock-down reagent: long dsRNA against Drosophila genes, 0.25 µg dsRNA per well of a 384-well plate. Duration: 5 days. Conditions: cells persistently infected with Wolbachia before knock-down; no added drug. Read-out: 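Imaged fluorescence in situ signal for Wolbachia 23S rRNA per DAPI-counted host cell, given as a robust z-score within each plate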. Direction: Wolbachia per cell robust z: higher = more Wolbachia per host cell than the plate typical. Hit rule: 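Active if absolute robust z reaches 1.5 in two or more of three replicates, leaving out multi- or no-target dsRNAs, genes unexpressed in JW18 and A1 wells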.
The screen tested about 24,000 reagents; shown is a random part of those that have a named target and a result. Of all reagents, about 1,210 (5%) were called active. 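Inactive calls also include excluded dsRNAs with several or no targets, genes unexpressed in JW18, and well A1, regardless of score.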 Unmarked entries are inactive. Reagents against one gene are numbered here. Names joined by + are all predicted targets of the reagent. Reagent sequences are not shown.

Wolbachia per cell robust z, rep 1 | Wolbachia per cell robust z, rep 2 | Wolbachia per cell robust z, rep 3 | Gene | reagent no.
-3.83 | -0.329 | -1.76 | Ugt49B2 (UDP-glycosyltransferase family 49 member B2) | 1
0.138 | -0.35 | -0.828 | Ugt49B2 (UDP-glycosyltransferase family 49 member B2) | 2
-0.0532 | -0.178 | -2.18 | GILT2 (Gamma-interferon-inducible lysosomal thiol reductase 2) | 1
0.714 | 0.468 | 1.19 | CG12320 | 1
0.426 | 1.74 | 0.682 | CG34002 | 1
0.192 | 0.508 | 0.623 | Ald2 (Aldolase 2) | 1
1.35 | 0.714 | 0.0259 | Ald2 (Aldolase 2) | 2
-0.111 | 0.585 | 0.0662 | Pdha (Pyruvate dehydrogenase E1 alpha subunit) | 1
-0.0232 | -1.62 | -0.761 | Pdha (Pyruvate dehydrogenase E1 alpha subunit) | 2
0.637 | -0.0373 | 0.804 | Lcp65Ag1 + Lcp65Ag2 + Lcp65Ag3 | 1
0.576 | 0.228 | -0.184 | nej (nejire) | 1
1.98 (active) | 1.99 | 4.2 | nej (nejire) | 2
1.01 | 0.668 | 0.588 | nej (nejire) | 3
0.286 | 0.965 | 3.28 | nej (nejire) | 4
-1.49 | 0.749 | 0.656 | CG31624 | 1
0.569 | 0.74 | 0.562 | Prosbeta5 (Proteasome beta5 subunit) | 1
1.3 (active) | 2.55 | 2.55 | Prosbeta5 (Proteasome beta5 subunit) | 2
-2.21 (active) | -2.06 | -10.8 | Phb1 (Prohibitin 1) | 1
-0.167 | -0.3 | -0.544 | Phb1 (Prohibitin 1) | 2
0.693 (active) | -6.47 | -2.69 | MBD-like (Methyl-CpG binding domain protein-like) | 1
-1.74 | -0.363 | 0.0858 | Fum2 (Fumarase 2) | 1
-0.347 | 0.609 | 1.2 | Fum2 (Fumarase 2) | 2
-0.264 | 0.574 | -0.146 | Fas3 (Fasciclin 3) | 1
-1.1 | -1.75 | 0.239 | Fas3 (Fasciclin 3) | 2
0.595 | -0.693 | -0.345 | Fas3 (Fasciclin 3) | 3
-0.677 | -0.437 | 0.084 | stops (slow termination of phototransduction) | 1
0.58 | -0.44 | 0.161 | stops (slow termination of phototransduction) | 2
0.185 | 0.194 | -5.27 | stops (slow termination of phototransduction) | 3
-2.11 | 1.04 | -0.0491 | Ir76a (Ionotropic receptor 76a) | 1
-1.68 | 1.01 | 0.667 | zetaTry (zetaTrypsin) | 1
0.192 | 0.68 | -1.1 | CG14053 | 1
0.354 | 0.117 | 1.26 | GstZ2 (Glutathione S transferase Z2) | 1
-1.5 | -0.271 | 0.00489 | Osi23 (Osiris 23) | 1
-2.19 | -0.356 | 0.0718 | CG30340 | 1
2.85 | 2.86 | 2.88 | Act79B (Actin 79B) | 1
1.27 | -7.14 | -0.367 | Act79B (Actin 79B) | 2
-3.05 (active) | -4.17 | -0.0271 | GstD1 (Glutathione S transferase D1) | 1
-0.917 | -1.87 | -0.243 | GstD1 (Glutathione S transferase D1) | 2
0.725 | -1.98 | -0.454 | CG31789 | 1
0.104 | 0.242 | 0.65 | CG31789 | 2
-0.283 | -0.128 | 0.328 | Gbs-76A (Glycogen binding subunit 76A) | 1
-0.599 | -6.18 | -0.167 | CHES-1-like (Checkpoint suppressor 1-like) | 1
-2.64 (active) | -1.91 | -1.01 | CG17328 | 1
1.39 | 1.37 | 0.616 | CG17328 | 2
-1.31 | -0.0531 | -0.57 | CG17328 | 3
-0.6 | 0.115 | -1.83 | CG31778 | 1

No new results follow: an excerpt of the list.
Wolbachia per cell robust z, rep 1 | Wolbachia per cell robust z, rep 2 | Wolbachia per cell robust z, rep 3 | Gene | reagent no.
-0.283 | -0.128 | 0.328 | Gbs-76A (Glycogen binding subunit 76A) | 1
-0.599 | -6.18 | -0.167 | CHES-1-like (Checkpoint suppressor 1-like) | 1
-2.64 (active) | -1.91 | -1.01 | CG17328 | 1
1.39 | 1.37 | 0.616 | CG17328 | 2
